Pooled drug test results. Numbers come from NIAID ChemDB, via PubChem.

Common to all: target-level tests; agent: HIV-1; target: Integrase; read by: strand transfer; read-out: IC50

Rows are shuffled and stem from different studies. ICn is the concentration giving n% inhibition. a–b is a range or a potency band. Blank or dashed fields: not listed here.

compound | changes | strain | result
O=C(O)/C(O)=C/C(=O)N(Cc1ccc(Cl)cc1)Cc1ccc(Cl)cc1 | - | - | <70 µM
CN(C)CCN1C(=O)c2ccc3[nH]c4ccc(Cl)cc4c3c2C1=O | - | - | >100 µM
N#C/C(=C\c1ccc(O)c(O)c1)C(=S)NCc1ccccc1 | - | - | 10–100 µM
Cc1cc2c(c3c1[nH]c1cc(Cl)c(O)cc13)C(=O)N(CCN(C)C)C2=O | - | - | >100 µM
N#C/C(=C\c1ccccc1)S(=O)(=O)/C(C#N)=C/c1ccc(O)c(O)c1 | - | - | 1.2 µM
O=C1O[C@H]2[C@@H]3OC(=O)c4cc(O)c(O)c(O)c4-c4c(cc(O)c(O)c4O)C(=O)OC[C@H]2O[C@@H](OC(=O)c2cc(O)c(O)c(O)c2)[C@@H]3OC(=O)c2cc(O)c(O)c3c2[C@@H]2C1=CC(=O)[C@](O)(O3)C2(O)O | - | - | 0.16 µg/mL
Cc1cnc2c(ccc3c(C)c(C)cnc32)c1C | - | - | >100 µM
CCOC(=O)c1cn2c(c1O)C(=O)N(Cc1ccc(Cl)cc1)CC2 | - | - | <1.5 µM
O=C(NCc1ccccc1)c1c(O)c2ncccc2oc1=O | - | - | 15.9 µM
O=C(O)c1cn2c(c1O)C(=O)N(Cc1ccccc1)CC2 | - | - | <0.7 µM
CN(Cc1ccccc1)C(=O)/C=C(\O)C(=O)O | - | - | <70 µM
O=C1c2c(O)c(=O)n(N3CCCCCC3)c(=O)n2CCN1Cc1ccc(F)cc1 | - | - | <10 µM
CCN(CC)CCCC(C)Nc1ccnc2cc(OC)ccc12 | - | - | >300 µM
CCCC(O)CCCCCCCc1cc(O)cc(O)c1 | - | - | >100 µM
N#C/C(=C\c1cc(O)c(O)c(O)c1)C(=O)NCCCNC(=O)/C(C#N)=C/c1cc(O)c(O)c(O)c1 | - | - | 0.16 µM
CNC(=O)c1cn2c(c1O)C(=O)N(Cc1ccc(F)cc1)CC2 | - | - | <0.7 µM
Cc1cc(Cl)cc2c1S(=O)(=O)N=C(C(=O)c1ccc(Cl)c(Cl)c1)S2 | INTG-C65S | - | 3 µM
COc1ccc(CN(C)C(=O)/C=C(\O)C(=O)O)cc1 | - | - | <70 µM
COc1ccc(-n2c(=O)c(O)c3n(c2=O)CCN(Cc2ccc(F)cc2)C3=O)cn1 | - | - | <10 µM
Cc1cc2c(cc1Cl)SC(C(=O)c1cccc([N+](=O)[O-])c1)=NS2(=O)=O | INTG-C65S | - | 80 µM
CCN(CC)CCCC(C)Nc1cncc2cc(Cl)ccc12 | - | - | >300 µM
N#C/C(=C\c1ccc(O)c(O)c1)C(=O)NCC1CCCC(CNC(=O)/C(C#N)=C/c2ccc(O)c(O)c2)C1 | - | - | 5–10 µM
CCOC(=O)c1cn2c(c1O)C(=O)N(Cc1cccc(F)c1)CC2 | - | - | <1.5 µM
COc1cc2[nH]c3ccc4c(c3c2cc1OC)C(=O)N(CCN(C)C)C4=O | - | - | >100 µM
CC(=O)N1CCC(n2c(=O)c(O)c3n(c2=O)CCN(Cc2ccc(F)cc2)C3=O)CC1 | - | - | <10 µM
O=C(O)/C(O)=C/C(=O)N(Cc1ccc(F)cc1)Cc1ccc(F)cc1F | - | - | <70 µM
N#C/C(=C\c1ccc(O)c(O)c1)C(=O)NCCCCc1ccccc1 | - | - | 10–100 µM
O=C(CN1CCOCC1)N1CCC(n2c(=O)c(O)c3n(c2=O)CCN(Cc2ccc(F)cc2)C3=O)CC1 | - | - | <10 µM
Cc1cc2c(cc1Cl)SC(C(=O)c1ccc(Br)cc1)=NS2(=O)=O | INTG-C65S | - | 65 µM
N#C/C(=C\c1ccc(O)c(O)c1)C(=O)NCCCNC(=O)/C(C#N)=C/c1ccc(O)c(O)c1 | - | - | 0.8 µM
CCN(CC)CCCC(C)Nc1cncc2cc(OC)ccc12 | - | - | >300 µM
O=C(C1=NS(=O)(=O)c2ccc(Cl)cc2S1)c1ccc(Cl)cc1 | INTG-C65S | - | 100 µM
N#C/C(=C\c1ccc(O)c(O)c1)C(=O)NCCCCCCCCCCNC(=O)/C(C#N)=C/c1ccc(O)c(O)c1 | - | - | 5–10 µM
[N-]=[N+]=NC[C@H]1O[C@@H](n2cnc3c(N)ncnc32)[C@H](O)[C@@H]1CC(=O)O | - | NL4-3 | >10 µM
O=C(NCCO)c1c(O)c2ncc(Cc3ccc(F)cc3)cc2n(-c2ccc(F)cc2)c1=O | - | - | 0.006 µM
CN(CCC(c1ccc(F)cc1)c1ccc(F)cc1)C(=O)/C=C(\O)C(=O)O | - | - | <70 µM
CO[C@H]1O[C@@H](n2ccc(=O)[nH]c2=O)C[C@@H]1N=[N+]=[N-] | - | - | 6.7 µM
CNC(=O)c1cn2c(c1O)C(=O)N(Cc1ccc(F)c(F)c1)CC2 | - | - | <1.5 µM
Cc1cc(Cl)cc2c1S(=O)(=O)N=C(C(=O)c1ccc(Cl)cc1)S2 | INTG-C65S | - | 65 µM
CCOC(=O)c1cn2c(c1O)C(=O)N(Cc1ccc(Cl)c(Cl)c1)CC2 | - | - | <1.5 µM
Cc1ccc(CNC(=O)c2c(O)c3ncccc3oc2=O)cc1 | - | - | 12.3 µM
CCN(CC)CCCC(C)Nc1cncc2cc(F)ccc12 | - | - | >300 µM
CN1C(C)(C)CC(n2c(=O)c(O)c3n(c2=O)CCN(Cc2ccc(F)cc2)C3=O)CC1(C)C | - | - | <10 µM
CC(C)C[C@H](NC(=O)[C@H](CC(C)C)NC(=O)[C@H](Cc1cnc[nH]1)NC(=O)[C@H](CCC(=O)O)NC(=O)[C@H](CC(C)C)NC(=O)[C@@H](N)Cc1cnc[nH]1)C(=O)N[C@@H](Cc1ccccc1)C(=O)O | - | - | >500 µM
CCCCN(CCCC)CCCn1c(=O)c(O)c2n(c1=O)CCN(Cc1ccc(F)cc1)C2=O | - | - | <10 µM
[N-]=[N+]=NC[C@H]1O[C@@H](n2cnc3c(NC(=O)Nc4ccccc4)ncnc32)[C@@H]2OC(=O)C[C@@H]21 | - | NL4-3 | >10 µM
Cc1cc2c(c3c1[nH]c1ccc(O)cc13)C(=O)N(CCN(C)C)C2=O | - | - | >100 µM
Cc1nc2c(ccc3c(C)c(C)c(C)nc32)c(C)c1C | - | - | >100 µM
O=c1oc2cccnc2c(O)c1C(=S)Nc1ccccc1 | - | - | >300 µM